Measured values from several laboratories, pooled; numbers as filed in NIAID ChemDB.

All rows: whole-cell or culture tests; organism: Rhinovirus; endpoint: EC50

Conditions beyond the fields shown may differ between rows. ECn is the concentration giving n% inhibition of infection, replication or growth.

| smiles | strain or isolate | cells | method | result |
|---|---|---|---|---|
| Fc1cccc(Cn2cnc3c(Nc4cccc(F)c4)nc(C(F)(F)F)nc32)c1 | Serotype 79 | M-HELA | plaque count | 25 µM |
| CN(C)c1nc(C(F)(F)F)nc2c1ncn2Cc1ccc(F)cc1 | Serotype 31 | M-HELA | plaque count | >8 µM |
| Fc1cccc(Nc2nc(C(F)(F)F)nc3c2ncn3Cc2ccccc2F)c1 | Serotype 2 | M-HELA | plaque count | 5.1 µM |
| COc1cc2c(=O)c(C)c(-c3ccccc3)n(C)c2cc1C(C)C | TYPE 89/41617-GALLO | HELA-OHIO | cytopathic effect | <0.033 µg/mL |
| CSc1nsc(-c2ccc(O)cc2)c1C#N | Serotype 59 (group B) | HELA-OHIO | cytopathic effect | >10 µM |
| Cc1cc(CCCCCOc2c(Cl)cc(C3=NCCO3)cc2Cl)on1 | TYPE 61 | HeLa | plaque count | 0.067 µg/mL |
| CN(C)c1nc(C(F)(F)F)nc2c1ncn2Cc1ccc(Cl)c(N)c1 | Serotype 5 | M-HELA | plaque count | >8 µM |
| CSc1nsc(-c2ccc(OCCOc3ccc(C#N)cc3)cc2)c1C#N | Serotype 85 (group B) | HELA-OHIO | cytopathic effect | >2 µM |
| CN(C)c1nc(C(F)(F)F)nc2c1ncn2Cc1ccc(Cl)cc1Cl | Serotype 5 | M-HELA | plaque count | >8 µM |
| Cc1c(-c2ccccc2)n(-c2cccc(F)c2)c2ccc(C(C)C)cc2c1=O | 13/353 | HELA-OHIO | cytopathic effect | 0.029 µg/mL |
| COc1ccc(Cn2cnc3c(N(C)C)nc(C(F)(F)F)nc32)cc1C | Serotype 18 | M-HELA | plaque count | >8 µM |
| CSc1nsc(-c2ccc(OC(C)(C)C)cc2)c1C#N | Serotype 59 (group B) | HELA-OHIO | cytopathic effect | >40 µM |
| CSc1nsc(-c2ccc(OCCCOc3ccc([N+](=O)[O-])cc3)cc2)c1C#N | Serotype 59 (group B) | HELA-OHIO | cytopathic effect | >1 µM |
| Cc1c(-c2ccccc2)n(-c2ccc(F)cc2)c2ccc(C(C)C)cc2c1=O | TYPE 5 | HELA-OHIO | cytopathic effect | >2 µg/mL |
| CSc1nsc(-c2ccc(OCCCOc3ccccc3)cc2)c1C#N | Serotype 89 (group B) | HELA-OHIO | cytopathic effect | 2.5 µM |
| CCO/N=C/c1ccc(OCCC2CCN(c3ccc(Cl)nn3)CC2)cc1 | 5426-CV26 (ICAM-1 receptor group 25) | KB | neutral red | 6.701 µM |
| Cc1cc(Cn2cnc3c(N(C)C)nc(C(F)(F)F)nc32)ccc1Cl | Serotype 8 | M-HELA | plaque count | >8 µM |
| CSc1nsc(-c2ccc(OCCOc3ccc([N+](=O)[O-])cc3)cc2)c1C#N | Serotype 14 (group A) | HELA-OHIO | cytopathic effect | >2 µM |
| CCn1c2c(c(=O)c3cc(C(C)C)ccc31)Cc1ccccc1-2 | 29/5582 | HELA-OHIO | cytopathic effect | 1.5 µg/mL |
| CCOC(=O)/C=C/[C@H](C[C@@H]1CCNC1=O)NC(=O)[C@@H](CC(=O)[C@@H](NC(=O)c1cc(C)on1)C(C)C)Cc1ccc(F)cc1 | Isolate 28 | OHIO HELA-I | cytopathic effect / visual reading | 0.01 µg/mL |
| CCOC(=O)c1ccc(OCCCCOc2ccc(-c3snc(SC)c3C#N)cc2)cc1 | Serotype 42 (group A) | HELA-OHIO | cytopathic effect | >2 µM |
| CSc1nsc(-c2ccc(OCc3ccccc3)cc2)c1C#N | Serotype 51 (group B) | HELA-OHIO | cytopathic effect | 19 µM |
| CCOC(=O)c1ccc(OCCC2CCN(c3ccc(C)nn3)CC2)cc1 | Serotype 29 (group B) | HELA-OHIO | cytopathic effect | 0.02 µM |
| CN(C)c1nc(C(F)(F)F)nc2c1ncn2Cc1ccccc1Cl | Serotype 13 | M-HELA | plaque count | >8 µM |
| CSc1nsc(-c2ccc(OCc3ccccc3)cc2)c1C#N | Serotype 51 (group B) | HELA-OHIO | cytopathic effect | 19 µM |
| Cc1cc(Cl)ccc1Cn1cnc2c(N(C)C)nc(C(F)(F)F)nc21 | Serotype 3 | M-HELA | plaque count | >8 µM |
| Cc1c(OCC(C)C)ccc2c1c(=O)cc(-c1ccccc1)n2C | TYPE 2/ HGP | HELA-OHIO | cytopathic effect | >1.7 µg/mL |

Repeating the first 3 entries:

smiles,strain or isolate,cells,method,result
Fc1cccc(Cn2cnc3c(Nc4cccc(F)c4)nc(C(F)(F)F)nc32)c1,Serotype 79,M-HELA,plaque count,25 µM
CN(C)c1nc(C(F)(F)F)nc2c1ncn2Cc1ccc(F)cc1,Serotype 31,M-HELA,plaque count,>8 µM
Fc1cccc(Nc2nc(C(F)(F)F)nc3c2ncn3Cc2ccccc2F)c1,Serotype 2,M-HELA,plaque count,5.1 µM